Measured data: PubChem BioAssay AID504761 (Drosophila RNAi Screening Center, 2011)
The deposit covers about 22,000 reagents; shown is an unselected part of those that have a named target and a result. In the full data, 116 (0.52%) are marked active. 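Calls depend on retest data that are not deposited; infection was ranked per plate without normalising between plates; the unit of the infection score is not given.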 Raw values are not corrected between plates. Entries without a mark were called inactive. A plus sign joins genes that one reagent is predicted to hit. Not stated in the record: the amount of reagent, the time to read-out.

Assay: 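Insect host genes that dengue virus relies on to spread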 (primary screen)
Cell system: D.Mel-2 cells from Drosophila
Knock-down reagent: long dsRNA against Drosophila genes
Treatment: infection with dengue virus type 2; dose and infection time not stated
Detection: 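Per well on two replicate plates, imaging gave the percent of cells positive for viral envelope protein, ranked by infection, and a nuclear count of cells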
Direction: infection score: higher = more virus-infected cells; cell count: higher = more cells in the well
Call rule: 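Very low infection ranking in both replicate wells (chance probability at most 0.065), then a retest showing infection dropped 1.5-fold or more at p below 0.05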
Calls: active = confirmed: knock-down lowers infection; inactive = not picked or not confirmed

Against CG31897 [DRSC01020], the entry reads infection score, replicate 1 = 1.18; infection score, replicate 2 = 1.27; cell count, replicate 1 = 6635; cell count, replicate 2 = 6614.
side-IV + CG17025 (retired record) [DRSC15168] gave infection score, replicate 1 = 3.15; infection score, replicate 2 = 7.65; cell count, replicate 1 = 5931; cell count, replicate 2 = 4799.
CG5569 [DRSC04514] showed infection score, replicate 1 = 6.11; infection score, replicate 2 = 15; cell count, replicate 1 = 6199; cell count, replicate 2 = 6612.
CG9101 [DRSC20152] scored infection score, replicate 1 = 3.38; infection score, replicate 2 = 2.45; cell count, replicate 1 = 6187; cell count, replicate 2 = 6952.
After knock-down of CG9101 [DRSC27575] the results were infection score, replicate 1 = 7.3; infection score, replicate 2 = 7.75; cell count, replicate 1 = 6139; cell count, replicate 2 = 6479.
Depletion of Reps (RALBP1 associated Eps domain containing) [DRSC02940] came out at: infection score, replicate 1 = 5.74; infection score, replicate 2 = 7.31; cell count, replicate 1 = 5875; cell count, replicate 2 = 6047.
UQCR-C2 (Ubiquinol-cytochrome c reductase core protein 2) [DRSC10405] gave infection score, replicate 1 = 3.28; infection score, replicate 2 = 5; cell count, replicate 1 = 6166; cell count, replicate 2 = 5037.
Depletion of UQCR-C2 (Ubiquinol-cytochrome c reductase core protein 2) [DRSC28912] gave: infection score, replicate 1 = 20.4; infection score, replicate 2 = 24.4; cell count, replicate 1 = 5088; cell count, replicate 2 = 5036.
Against Dhod (Dihydroorotate dehydrogenase) [DRSC16647], the values are infection score, replicate 1 = 2.31; infection score, replicate 2 = 7.21; cell count, replicate 1 = 6407; cell count, replicate 2 = 6626.
After knock-down of CG30151 [DRSC05888], the record shows infection score, replicate 1 = 0.33; infection score, replicate 2 = 0.05; cell count, replicate 1 = 6435; cell count, replicate 2 = 5853.
For CG30151 [DRSC24759], the values are infection score, replicate 1 = 15.1; infection score, replicate 2 = 11.3; cell count, replicate 1 = 6060; cell count, replicate 2 = 5895.
CG2493 [DRSC02707] scored infection score, replicate 1 = 16.7; infection score, replicate 2 = 28.3; cell count, replicate 1 = 6703; cell count, replicate 2 = 6312.

2 entries from above, limited to “cell count, replicate 1”:
Dhod (Dihydroorotate dehydrogenase) [DRSC16647]: 6407
CG30151 [DRSC05888]: 6435

Next entries follow:
For CG5013 [DRSC15695], the values are infection score, replicate 1 = 5.51; infection score, replicate 2 = 9.51; cell count, replicate 1 = 6258; cell count, replicate 2 = 6488.
Knock-down of st (scarlet) [DRSC11399] resulted in: infection score, replicate 1 = 2.64; infection score, replicate 2 = 5.16; cell count, replicate 1 = 6822; cell count, replicate 2 = 6216.
Silencing of st (scarlet) [DRSC28257] gave: infection score, replicate 1 = 15.7; infection score, replicate 2 = 9.27; cell count, replicate 1 = 4930; cell count, replicate 2 = 6519.
For CG9497 [DRSC03234] the deposit lists infection score, replicate 1 = 1.03; infection score, replicate 2 = 2.82; cell count, replicate 1 = 6509; cell count, replicate 2 = 5683.
CG9497 [DRSC25510] showed infection score, replicate 1 = 12.8; infection score, replicate 2 = 3.14; cell count, replicate 1 = 6646; cell count, replicate 2 = 6022.
Against RpL4 (Ribosomal protein L4) [DRSC16833], the entry reads infection score, replicate 1 = 3.23; infection score, replicate 2 = 5.14; cell count, replicate 1 = 1519; cell count, replicate 2 = 1343.
Depletion of RpL4 (Ribosomal protein L4) [DRSC25032] gave: infection score, replicate 1 = 2.91; infection score, replicate 2 = 7.61; cell count, replicate 1 = 1237; cell count, replicate 2 = 1327.
For mRpL13 (mitochondrial ribosomal protein L13) [DRSC02076], the entry reads infection score, replicate 2 = 10.5; cell count, replicate 1 = 660; cell count, replicate 2 = 6337.
Silencing of mRpL13 (mitochondrial ribosomal protein L13) [DRSC30067] came out at: infection score, replicate 1 = 4.48; infection score, replicate 2 = 3.28; cell count, replicate 1 = 6357; cell count, replicate 2 = 5675.
For Boot (Bootlegger) [DRSC06412] the deposit lists infection score, replicate 1 = 25.7; infection score, replicate 2 = 10.6; cell count, replicate 1 = 3886; cell count, replicate 2 = 6211.
For gom (gomdanji) [DRSC04690], the entry reads infection score, replicate 1 = 30.6; infection score, replicate 2 = 9.86; cell count, replicate 1 = 5647; cell count, replicate 2 = 6309.
For CG15353 [DRSC00383], the values are infection score, replicate 1 = 30; infection score, replicate 2 = 31; cell count, replicate 1 = 5723; cell count, replicate 2 = 6612.
For CG15353 [DRSC24727] the deposit lists infection score, replicate 1 = 3.41; infection score, replicate 2 = 1.42; cell count, replicate 1 = 6250; cell count, replicate 2 = 5967.
For Ih (I[[h]] channel) [DRSC07445] the deposit lists infection score, replicate 1 = 29.5; infection score, replicate 2 = 21.8; cell count, replicate 1 = 2643; cell count, replicate 2 = 5290.
Against Ih (I[[h]] channel) [DRSC24809], the entry reads infection score, replicate 1 = 3.87; infection score, replicate 2 = 2.07; cell count, replicate 1 = 6774; cell count, replicate 2 = 6634.
